A mixed list of measured activities; the numbers were collected in NIAID ChemDB.

Shared fields: whole-cell or culture tests; species: Mycobacterium tuberculosis

MIC bound comes from a single tested concentration. Conditions beyond the fields shown may differ between rows. An empty or dashed field is not shown. a–b is a range or a potency band. MIC50, MIC90 and the like: level of inhibition, or share of isolates inhibited. Inhibition is in % at the dose shown (toxicity tests: loss of growth or viability).

compound,setting,tested at,strain,endpoint,method,value
N#Cc1cnc(C(N)=O)c(NC2CCCCCC2)n1,,,H37Rv,MIC,,>100 µg/mL
CO[C@H]1/C=C/O[C@@]2(C)Oc3c(C)c(O)c4c(O)c(c5c(c4c3C2=O)NC2(CCN(CC(C)C)CC2)N=5)=NC(=O)/C(C)=C\C=C\[C@H](C)[C@H](O)[C@@H](C)[C@@H](O)[C@@H](C)[C@H](OC(C)=O)[C@@H]1C,,,H37Rv,MIC,,0.005 µg/mL
CC(C)[C@H]1CO[C@]23CC[C@H](N(Cc4ccc(C(F)(F)F)cc4)C4CCNCC4)C[C@H]2CCC(=O)N13,,,,MIC,resazurin,<0.5 µM
CC[C@@H](C)[C@H](NC(=O)OCc1ccccc1)c1cnc(-c2ccc([N+](=O)[O-])cc2)[nH]1,14 d,,My 331/88,MIC,,16 µM
O=C(O)C(=O)NCc1cnccn1,,,H37Rv,MIC,BACTEC,≥12.5 µg/mL
Cc1ccc2[nH]c3c(c2c1)CCCc1cnn(-c2ccccc2)c1-3,,50 µg/mL,H37Rv,inhibition,resazurin,0%
O=c1c2cc(O)ccc2oc2c(CO)ccc(NCCN3CCCC3)c12,,12.5 µg/mL,H37Rv,inhibition,BACTEC,16.82%
CC[C@H](/C=C/C(C)[C@H]1CCC2C3CCC4=CC(=O)CC[C@]4(C)C3CC[C@@]21C)C(C)C,,,H37Rv,MIC,,<2 µg/mL
Cc1nc2ccc3c(ccc4nc(C)c(N=Nc5ccc(C(=N)N)cc5)c(O)c43)c2c(O)c1N=Nc1ccc(C(=N)N)cc1,,12.5 µg/mL,H37Rv,inhibition,BACTEC,71%
CCCCCCCN1CCC2(CC1)N=c1c(c3c4c5c(C)c(O)c3c(O)c1=NC(=O)/C(C)=C\C=C\[C@H](C)[C@H](O)[C@@H](C)[C@@H](O)[C@@H](C)[C@H](OC(C)=O)[C@H](C)[C@@H](OC)/C=C/O[C@@](C)(O5)C4=O)N2,,,H37Rv,MIC,,0.0012 µg/mL
O=C(NCc1ccc(N2CCOCC2)cc1)c1ccc([N+](=O)[O-])s1,,,H37Rv,MIC90,,6.5 µg/mL
CN[C@@H]1[C@H](O[C@H]2[C@H](O[C@H]3[C@H](O)[C@@H](O)[C@H](N=C(N)N)[C@@H](O)[C@@H]3N=C(N)N)O[C@@H](C)[C@]2(O)C=O)O[C@@H](CO)[C@H](O)[C@H]1O,,,3660/83 (streptomycin-resistant),MIC,,25–50 µg/mL
CC(C)[C@H]1CO[C@]23CC[C@H](N(Cc4ccc(C(F)(F)F)cc4)C4CN(CCCC(F)(F)F)C4)C[C@H]2CCC(=O)N13,,,,MIC,resazurin,<0.5 µM
CCN1CCC2(CC1)N=c1c(c3c4c5c(C)c(O)c3c(O)c1=NC(=O)/C(C)=C\C=C\[C@H](C)[C@H](O)[C@@H](C)[C@@H](O)[C@@H](C)[C@H](OC(C)=O)[C@H](C)[C@@H](OC)/C=C/O[C@@](C)(O5)C4=O)N2,,,H37Rv,MIC,,0.005 µg/mL
C[C@@H](NC(=O)OCc1ccccc1)c1cnc(-c2ccc([N+](=O)[O-])cc2)[nH]1,21 d,,My 331/88,MIC,,>125 µM
CC1(C)S[C@@H]2[C@H](NC(=O)COc3ccccc3)C(=O)N2[C@H]1C(=O)O,,,H37Rv,MIC,resazurin,512 µg/mL
N[C@@H]1CN(c2c(F)cc3c(=O)c(C(=O)O)cn([C@@H]4C[C@@H]4F)c3c2Cl)CC12CC2,,,,MIC90,,≤0.125 µg/mL
O=C(NCCCCCCNC(=O)n1cc(F)c(=O)[nH]c1=O)NC1C(O)OC(CO)C(O)C1O,,,H37Rv,MIC bound,BACTEC,>12.5 µg/mL
CC(C)[C@H]1CO[C@]23CC[C@H](N(Cc4ccc(C(F)(F)F)cc4)C4CCC(F)(F)CC4)C[C@H]2CCC(=O)N13,,,,MIC,resazurin,0.5–5 µM
O=C(Cc1cccs1)N[C@@H]1C(=O)N2C(C(=O)[O-])=C(C[n+]3ccccc3)CS[C@H]12,,,Isolate 4,MIC,,>16 µg/mL
COc1cc2c(cc1OC)CN(CNC(=O)c1nc([N+](=O)[O-])cn1C)CC2,,,H37Rv,MIC90,,>200 µg/mL
COc1cc(C)c2c(Oc3cccc(C(F)(F)F)c3)c(OC)cc(NC(C)CCCN)c2n1,,,H37Rv,MIC,resazurin,20 µM
CC(C)[C@H]1CO[C@]23CC[C@@H](OC(c4ccc(C(F)(F)F)cc4)c4ccc(C(F)(F)F)cc4)C[C@H]2CCC(=O)N13,,,,MIC,resazurin,<0.5 µM
COc1ccc(CCNC(=O)c2ccc([N+](=O)[O-])o2)cc1,,,H37Rv,MIC90,,0.4 µg/mL
CN[C@@H]1[C@H](O[C@H]2[C@H](O[C@H]3[C@H](O)[C@@H](O)[C@H](N=C(N)N)[C@@H](O)[C@@H]3N=C(N)N)O[C@@H](C)[C@]2(O)C=O)O[C@@H](CO)[C@H](O)[C@H]1O,,,H37Ra,MIC,resazurin,0.2 µM
O=C1C(Cl)=C(Nc2ccc3cn[nH]c3c2)C(=O)c2ccccc21,,12.5 µg/mL,H37Rv,inhibition,BACTEC,99%
O=C(O)[C@H]1/C(=C/CO)O[C@@H]2CC(=O)N21,,,H37Ra,MIC,,>16 µg/mL
Cc1c(Cc2cccc(Cl)c2)c(=O)n2c([nH]c3ccccc32)c1C#N,,,H37Rv,MIC90,resazurin,>128 µg/mL
CC[C@@H](CO)NCCN[C@@H](CC)CO,,,H37Rv,MIC,luminescence,0.3 µg/mL
COc1ccc2c(C)cc(N/N=C/c3ccnc4ccccc34)nc2c1,,12.5 µg/mL,H37Rv,inhibition,BACTEC,96%
CC1COc2c(N3CCN(C)CC3)c(F)cc3c(=O)c(C(=O)O)cn1c23,,,,MIC,,0.5–2 µg/mL
c1ccc2c3c([nH]c2c1)-c1nocc1CCC3,,50 µg/mL,H37Rv,inhibition,resazurin,0%
CC(C)=CCCC(C)[C@H]1CC[C@@]2(C)C3CCC4C(C)(C)[C@@H](O)CCC45CC35CC[C@]12C,,,H37Rv,MIC,,>64 µg/mL
O=C(Nc1ccc(Br)cc1)c1cnccn1,,,PAS-R,MIC,,>12.5 µg/mL
CC(C)[C@H]1CO[C@]23CC[C@H](N(Cc4ccc(C(F)(F)F)cc4)C4CCN(C(=O)OC(C)(C)C)CC4)C[C@H]2CCC(=O)N13,,,,MIC,resazurin,<0.5 µM
CSC(=S)N/N=C(\C)c1nccnc1C,,,H37Rv,MIC,BACTEC,64 µg/mL
CO[C@H]1/C=C/O[C@@]2(C)Oc3c(C)c(O)c4c(O)c(c(N=CN5CCCCCC5)c(O)c4c3C2=O)NC(=O)/C(C)=C\C=C\[C@H](C)[C@H](O)[C@@H](C)[C@@H](O)[C@@H](C)[C@H](OC(C)=O)[C@@H]1C,,,H37Rv,MIC,,0.0025 µg/mL
Cc1c(CN2CCN(C)CC2)cc(-c2ccc(Cl)cc2)n1-c1ccc(Cl)cc1,,,CIP103471,MIC,,0.7 µg/mL
CC(C)/C=C/C[C@@H](C)[C@H]1CC[C@@]2(C)C3CCC4C(C)(C)[C@@H](O)CCC45CC35CC[C@]12C,,,,MIC,,8 µg/mL
NC(=O)C1=C[C@H]2[C@H]3C=C[C@@]2(O)C(=O)O[C@@H]3O1,,,INH-r,MIC,,6.3 µg/mL
CCN(CC)c1nc(C(N)=S)cnc1C(N)=O,,,H37Rv,MIC,,50 µg/mL
CC(C)[C@H]1CO[C@]23CC[C@H](N(Cc4ccc(C(F)(F)F)cc4)CC4CCCNC4)C[C@H]2CCC(=O)N13,,,,MIC,resazurin,<0.5 µM
NC(=O)c1ncc(C(N)=S)nc1N1CCOCC1,,,H37Rv,MIC,,50 µg/mL
c1ccc(-n2ncc3c2-c2[nH]c4ccccc4c2CCC3)cc1,,50 µg/mL,H37Rv,inhibition,resazurin,0%
O=C(NN1C(=O)CS(=O)(=O)C1c1ccc(Cl)cc1Cl)c1ccncc1,,,14PI,MIC,,>5 µg/mL
CC1COc2c(N3CCN(C)CC3)c(F)cc3c(=O)c(C(=O)O)cn1c23,,,9 strains (MDR),MIC50,,0.5 µg/mL
O=C(O)c1cn(C2CC2)c2c(Cl)c(N3C[C@@H]4CCCN[C@@H]4C3)c(F)cc2c1=O,,,82 strains,MIC50,,0.01 µg/mL
COc1ccc(Cc2c(C)c(C#N)c3[nH]c4ccccc4n3c2=O)cc1,,,V2475,MIC90,resazurin,16 µg/mL
CC1NC(=O)C2=C1C(=O)NC(=O)C2,,,H37Rv,MIC bound,BACTEC,>12.5 µg/mL
C[C@@H]1CC[C@]2(C)CC[C@]3(C)C(=CCC4[C@@]5(C)CC[C@@H](O)C(C)(C)C5CC[C@]43C)C2C1,,,,MIC,,>128 µg/mL
C[C@H]1COc2c(N3CCN(C)CC3)c(F)cc3c(=O)c(C(=O)O)cn1c23,,,,MIC90,,1 µg/mL
C=CCN(CC=C)c1nc(C(N)=S)cnc1C(N)=O,,,H37Rv,MIC,,25 µg/mL
NC1CCN(c2nc3c(cc2F)c(=O)c(C(=O)O)cn3-c2ccc(F)cc2F)C1,,,ATCC 35822,MIC,,>8 µg/mL
COc1ccc(CCNC(=O)c2ccc([N+](=O)[O-])o2)cc1OC,,,H37Rv,MIC90,,6.25 µg/mL
CC[C@@H](C)[C@H](NC(=O)OCc1ccccc1)c1cnc(-c2ccccc2)[nH]1,14 d,,My 331/88,MIC,,32 µM
COc1ccc(CNC(=O)c2nc([N+](=O)[O-])cn2C)cc1,,,H37Rv,MIC90,,>200 µg/mL
CN1C(=O)NC2(C1=O)C(=O)N(C)C(=O)N2C,,,H37Rv,MIC,BACTEC,≥12.8 µg/mL
C[C@@H](O)[C@H]1C(=O)N2C(C(=O)O)=C(S[C@@H]3CN[C@H](C(=O)N(C)C)C3)[C@H](C)[C@H]12,,,H37Rv,MIC,resazurin,8 µg/mL
OC(C1CCCCN1)C1CC(c2ccccc2)Nc2c(Cl)cc(Cl)cc21,,6.25 µg/mL,H37Rv,inhibition,resazurin,100%
NC(=O)c1ncc(C(N)=S)nc1Nc1ccc(O)cc1,,,H37Rv,MIC,,25 µg/mL
CCCCCCN(CCCCCC)/N=C/c1c2c(O)c3c(O)c(C)c4c(c3c1O)C(=O)[C@@](C)(O/C=C/[C@H](OC)[C@@H](C)[C@@H](OC(C)=O)[C@H](C)[C@H](O)[C@H](C)[C@@H](O)[C@@H](C)/C=C/C=C(/C)C(=O)N2)O4,,,H37Rv,MIC bound,BACTEC,≤12.5 µg/mL
CC1(C)[C@H](C(=O)O)N2C(=O)C[C@H]2S1(=O)=O,,,H37Rv,MIC,,>16 µg/mL
Cc1cc(C(N)=O)c(C(N)=O)c(Cl)n1,,12.5 µg/mL,H37Rv,inhibition,BACTEC,3%
CC1(C)S[C@@H]2[C@H](NC(=O)[C@H](N)c3ccc(O)cc3)C(=O)N2[C@H]1C(=O)O,,,Isolate 1,MIC,,>16 µg/mL
Clc1cc2nsnc2cc1Cl,,6.25 µg/mL,H37Rv,inhibition,BACTEC,0%
CCn1cc(C(=O)O)c(=O)c2cc(F)c(N3CCNC(C)C3)c(F)c21,,,,MBC,,2–4 µg/mL
NC(=O)C1CCCN1C(=O)c1cccnc1,,12.5 µg/mL,H37Rv,inhibition,BACTEC,-19%
C[C@H]1[C@H](NC(=O)/C(=N\OC(C)(C)C(=O)O)c2csc(N)n2)C(=O)N1S(=O)(=O)O,,,24 strains (drug-susceptible),MIC90,,>64 µg/mL
O=C1c2ccccc2-c2nccc3c2c1nc1ccccc13,,,H37Rv,MIC,BACTEC,0.1 µg/mL
O=C(N/N=C/c1ccc(F)cc1)c1ccncc1,,,14PI,MIC,,>5 µg/mL
C[N+](C)(C)C1C2(CCCCC2)NC(=O)C12CCCCC2,,,H37Rv,MIC bound,BACTEC,>12.5 µg/mL
CC(C)CNc1nc(C(N)=S)cnc1C(N)=O,,,H37Rv,MIC,,50 µg/mL
Oc1c2c(c3cccc4cccc1c43)=Nc1ccccc1S2,,12.5 µg/mL,H37Rv,inhibition,BACTEC,4%
C[C@]1(COc2ccc(OC(F)(F)F)cc2)Cn2cc([N+](=O)[O-])nc2O1,,,H37Rv (INH-resistant),MIC,,0.39 µg/mL
NC(=O)NC(=O)C1C2CC3OC(=O)C1C3C2,,12.5 µg/mL,H37Rv,inhibition,BACTEC,18%
O=C(OCc1ccccc1)N1CCC[C@H]1c1cnc(-c2ccccc2)[nH]1,14 d,,My 331/88,MIC,,62.5 µM

A second listing of 10 rows from above:

compound | setting | tested at | strain | endpoint | method | value
C[C@@H](O)[C@H]1C(=O)N2C(C(=O)O)=C(S[C@@H]3CN[C@H](C(=O)N(C)C)C3)[C@H](C)[C@H]12 |  |  | H37Rv | MIC | resazurin | 8 µg/mL
CC1NC(=O)C2=C1C(=O)NC(=O)C2 |  |  | H37Rv | MIC bound | BACTEC | >12.5 µg/mL
CC1COc2c(N3CCN(C)CC3)c(F)cc3c(=O)c(C(=O)O)cn1c23 |  |  |  | MIC |  | 0.5–2 µg/mL
C[C@H]1COc2c(N3CCN(C)CC3)c(F)cc3c(=O)c(C(=O)O)cn1c23 |  |  |  | MIC90 |  | 1 µg/mL
C[C@@H](NC(=O)OCc1ccccc1)c1cnc(-c2ccc([N+](=O)[O-])cc2)[nH]1 | 21 d |  | My 331/88 | MIC |  | >125 µM
CC(C)[C@H]1CO[C@]23CC[C@H](N(Cc4ccc(C(F)(F)F)cc4)C4CN(CCCC(F)(F)F)C4)C[C@H]2CCC(=O)N13 |  |  |  | MIC | resazurin | <0.5 µM
O=C(OCc1ccccc1)N1CCC[C@H]1c1cnc(-c2ccccc2)[nH]1 | 14 d |  | My 331/88 | MIC |  | 62.5 µM
O=C1C(Cl)=C(Nc2ccc3cn[nH]c3c2)C(=O)c2ccccc21 |  | 12.5 µg/mL | H37Rv | inhibition | BACTEC | 99%
CC(C)[C@H]1CO[C@]23CC[C@H](N(Cc4ccc(C(F)(F)F)cc4)CC4CCCNC4)C[C@H]2CCC(=O)N13 |  |  |  | MIC | resazurin | <0.5 µM
CO[C@H]1/C=C/O[C@@]2(C)Oc3c(C)c(O)c4c(O)c(c(N=CN5CCCCCC5)c(O)c4c3C2=O)NC(=O)/C(C)=C\C=C\[C@H](C)[C@H](O)[C@@H](C)[C@@H](O)[C@@H](C)[C@H](OC(C)=O)[C@@H]1C |  |  | H37Rv | MIC |  | 0.0025 µg/mL